Potato spindle tuber viroid, loop 15: variant abundance in plants

From the data files of Wu et al. 2024, doi:10.1371/journal.ppat.1012142.

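A pool of all variants was put on leaves of three Nicotiana benthamiana plants. Progeny were sequenced from the inoculated region (day 5), the margin of the inoculated leaf (day 10) and systemic leaves (day 12).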

Region: loop 15 of PSTVd (intermediate strain), upper and lower strand joined, each 5' to 3', the first 7 letters being the upper strand, closing pairs included. Wild type: GGAAACCGCUACUAC. Varied positions (N): GGAAACCGNNNNNNC.

Values are reads per thousand in the sample; higher means more abundant, 0 means not found. Each site shows the three plants. "Pool" is the share in the plasmid pool used as inoculum, on the same scale. The inoculated region was read from the minus strand, the other sites from the plus strand. IR is the inoculated region, LM the leaf margin, Sys the systemic leaves. With 43,870-66,106 reads a sample, very low values are single reads. The authors trace changes outside the varied positions to PCR and sequencing errors or to mutation in the plant; presence does not show that a variant is infectious alone. Wild type was 33.9 per thousand in the pool and the most common sequence in every sample (inoculated region 202, 200, 159; leaf margin 724, 746, 710; systemic leaves 856, 883, 880).

| # | sequence | pool | IR | LM | Sys |
|---|---|---|---|---|---|
| 1 | GGAAACCGGUCACGC | 0.192 | 0.115 / 0.112 / 0.152 | 0.0323 / 0 / 0 | 0.0161 / 0 / 0 |
| 2 | GGAAACCGGCGGACC | 0.304 | 0.0819 / 0.0643 / 0.114 | 0 / 0 / 0 | 0 / 0 / 0 |
| 3 | GGAAACCGUGAACCC | 0.176 | 0.0983 / 0.0803 / 0.0762 | 0 / 0 / 0.0200 | 0 / 0 / 0 |
| 4 | GGAAACCGUAUCUAC | 0.176 | 0.262 / 0.353 / 0.343 | 0.113 / 0.0445 / 0.220 | 0.0483 / 0 / 0 |
| 5 | GGAAACCGCACUUUC | 0.176 | 0.131 / 0.0964 / 0.0952 | 0.0162 / 0.0223 / 0 | 0 / 0 / 0 |
| 6 | GGAAACCGUUAUAAC | 0.272 | 0.328 / 0.450 / 0.571 | 0.162 / 0.0223 / 0.160 | 0.0161 / 0.0454 / 0.0912 |
| 7 | GGAAACCGAGGGUUC | 0.240 | 0.328 / 0.418 / 0.362 | 0.178 / 0.0891 / 0.100 | 0.113 / 0.0454 / 0.0912 |
| 8 | GGAAACCGACUAUAC | 0.224 | 0.229 / 0.193 / 0.286 | 0.113 / 0.0668 / 0.0801 | 0 / 0 / 0 |
| 9 | GGAAACCGCCUUCAC | 0.368 | 0.115 / 0.0161 / 0.0381 | 0.0162 / 0 / 0.0401 | 0 / 0 / 0 |
| 10 | GGAAACCGUUCUCAC | 0.112 | 0.278 / 0.353 / 0.438 | 0.162 / 0.0668 / 0.220 | 0.0644 / 0.0756 / 0.0912 |
| 11 | GGAAACCGGGAAGUC | 0.176 | 0.147 / 0.145 / 0.114 | 0.0323 / 0.0223 / 0.0200 | 0 / 0 / 0 |
| 12 | GGAAACCGGGAAUCC | 0.208 | 0.147 / 0.0803 / 0.0571 | 0.0162 / 0 / 0.0200 | 0 / 0 / 0 |
| 13 | GGAAACCGGCAGAGC | 0.208 | 0.0655 / 0.0643 / 0.0952 | 0.0162 / 0 / 0 | 0 / 0 / 0 |
| 14 | GGAAACCGCGGUACC | 0.192 | 0.0819 / 0.0803 / 0.114 | 0 / 0 / 0 | 0 / 0 / 0 |
| 15 | GGAAACCGCUUGGAC | 0.256 | 0.115 / 0.0643 / 0.0952 | 0 / 0.0223 / 0.0200 | 0 / 0 / 0 |
| 16 | GGAAACCGCCUGUUC | 0.224 | 0.278 / 0.353 / 0.343 | 0.0647 / 0.0223 / 0.140 | 0.0322 / 0.0454 / 0.0456 |
| 17 | GGAAACCGGCUGCAC | 0.208 | 0.0328 / 0.0482 / 0.0190 | 0 / 0 / 0.0401 | 0 / 0 / 0 |
| 18 | GGAAACCGCGACCUC | 0.192 | 0.328 / 0.418 / 0.343 | 0.0647 / 0.0891 / 0.140 | 0.0644 / 0 / 0 |
| 19 | GGAAACCGGACCCCC | 0.240 | 0.115 / 0.0161 / 0.0762 | 0.0162 / 0 / 0 | 0 / 0 / 0 |
| 20 | GGAAACCGAGACAGC | 0.208 | 0.213 / 0.225 / 0.209 | 0.0485 / 0.0223 / 0.0200 | 0.0161 / 0 / 0 |
| 21 | GGAAACCGAUUGAGC | 0.256 | 0.115 / 0.129 / 0.0762 | 0 / 0 / 0 | 0 / 0 / 0 |
| 22 | GGAAACCGUGUGCCC | 0.192 | 0.115 / 0.0803 / 0.0762 | 0 / 0 / 0.0200 | 0 / 0 / 0 |
| 23 | GGAAACCGGCCGGAC | 0.176 | 0.197 / 0.145 / 0.171 | 0 / 0 / 0.0200 | 0 / 0 / 0 |
| 24 | GGAAACCGCUUGGCC | 0.144 | 0.131 / 0.0161 / 0.171 | 0 / 0 / 0 | 0 / 0 / 0 |
| 25 | GGAAACCGACAUGGC | 0.224 | 0.164 / 0.0482 / 0.114 | 0 / 0.0223 / 0.0401 | 0 / 0 / 0 |
| 26 | GGAAACCGGAGUGCC | 0.224 | 0.164 / 0.0643 / 0.114 | 0 / 0 / 0 | 0 / 0 / 0 |
| 27 | GGAAACCGGGGAUUC | 0.304 | 0.0819 / 0.0482 / 0.0762 | 0 / 0 / 0.0200 | 0 / 0 / 0 |
| 28 | GGAAACCGCUUACCC | 0.352 | 0.147 / 0.0964 / 0.114 | 0 / 0 / 0 | 0 / 0 / 0 |
| 29 | GGAAACCGCCUUGGC | 0.192 | 0.278 / 0.209 / 0.209 | 0.0162 / 0 / 0 | 0.0161 / 0 / 0 |
| 30 | GGAAACCGCUUCAUC | 0.208 | 0.0328 / 0.161 / 0 | 0.0323 / 0 / 0.0200 | 0 / 0 / 0 |
| 31 | GGAAACCGUGAGAAC | 0.240 | 0.229 / 0.337 / 0.324 | 0.129 / 0.0668 / 0.0601 | 0.0483 / 0.0303 / 0.0456 |
| 32 | GGAAACCGUGGACUC | 0.208 | 0.0491 / 0.0482 / 0.152 | 0 / 0.0223 / 0.0200 | 0 / 0 / 0 |
| 33 | GGAAACCGGGGGGCC | 0.240 | 0.0491 / 0.112 / 0.0571 | 0.0323 / 0 / 0.0200 | 0 / 0 / 0 |
| 34 | GGAAACCGUCAGAGC | 0.192 | 0.213 / 0.289 / 0.362 | 0.146 / 0.0445 / 0.180 | 0.0322 / 0 / 0 |
| 35 | GGAAACCGCUGAAGC | 0.176 | 0.115 / 0.112 / 0.114 | 0 / 0 / 0 | 0 / 0 / 0 |
| 36 | GGAAACCGGAGAUGC | 0.256 | 0.0655 / 0.0643 / 0.0952 | 0 / 0 / 0 | 0 / 0 / 0.0228 |
| 37 | GGAAACCGUCAAAAC | 0.288 | 0.344 / 0.273 / 0.419 | 0.113 / 0.156 / 0.140 | 0.0644 / 0.0151 / 0.0912 |
| 38 | GGAAACCGCGACAAC | 0.208 | 0.213 / 0.305 / 0.362 | 0.146 / 0.0891 / 0.100 | 0.0483 / 0.0151 / 0.0684 |
| 39 | GGAAACCGUAUAAUC | 0.288 | 0.213 / 0.305 / 0.171 | 0 / 0 / 0.0401 | 0 / 0 / 0 |
| 40 | GGAAACCGCCGCCAC | 0.192 | 0.0819 / 0.0803 / 0.171 | 0.0162 / 0 / 0.0401 | 0 / 0 / 0 |
| 41 | GGAAACCGGCCUUAC | 0.176 | 0.0983 / 0.273 / 0.114 | 0 / 0 / 0 | 0 / 0 / 0 |
| 42 | GGAAACCGUCCCCCC | 0.224 | 0.164 / 0.225 / 0.0571 | 0 / 0 / 0.0200 | 0.0161 / 0 / 0 |
| 43 | GGAAACCGCGAUGUC | 0.208 | 0.0328 / 0.0321 / 0.133 | 0 / 0.0223 / 0.0200 | 0 / 0 / 0 |
| 44 | GGAAACCGAUACGCC | 0.224 | 0.0655 / 0.112 / 0.0571 | 0 / 0 / 0 | 0 / 0 / 0 |
| 45 | GGAAACCGAAACGGC | 0.272 | 0.115 / 0.0482 / 0.114 | 0.0162 / 0 / 0 | 0 / 0 / 0 |
| 46 | GGAAACCGCCCCUAC | 0.224 | 0.360 / 0.337 / 0.305 | 0.0808 / 0.0668 / 0.220 | 0.0483 / 0.0756 / 0.0684 |
| 47 | GGAAACCGUGUCGAC | 0.176 | 0.0655 / 0.0643 / 0.114 | 0.0162 / 0 / 0.0200 | 0.0161 / 0 / 0 |
| 48 | GGAAACCGAAGCCUC | 0.224 | 0.147 / 0.0482 / 0.152 | 0.0162 / 0 / 0 | 0 / 0 / 0 |
| 49 | GGAAACCGACUGUAC | 0.224 | 0.344 / 0.353 / 0.267 | 0.113 / 0.0445 / 0.140 | 0.0483 / 0.0756 / 0.0456 |
| 50 | GGAAACCGACCGCAC | 0.160 | 0.0819 / 0.0161 / 0.152 | 0 / 0 / 0.0401 | 0 / 0 / 0.0228 |
| 51 | GGAAACCGCGCAAUC | 0.272 | 0.0491 / 0.129 / 0.0571 | 0.0162 / 0.0445 / 0 | 0.0483 / 0 / 0 |

2 of these entries, quoted again:

- GGAAACCGGACCCCC (pool 0.240) = IR 0.115 / 0.0161 / 0.0762; LM 0.0162 / 0 / 0; Sys 0 / 0 / 0
- GGAAACCGUGAGAAC (pool 0.240) = IR 0.229 / 0.337 / 0.324; LM 0.129 / 0.0668 / 0.0601; Sys 0.0483 / 0.0303 / 0.0456